Values of other authors in patent US20060240077A1, “Methodologies for improving the quality of meat, health status of animals and impact on environment” (priority 2003, published 2006).

Settings: for Odour threshold air, High: highest literature value; for Odour threshold air, Low: lowest literature value

SMILES | Odour threshold air, High | Odour threshold air, Low
CC(C)C(=O)O [2-Methylpropanoic acid] | 0.0072 (3) mg/m3 | 0.00072 (3) mg/m3
CC(C)CC(=O)O [3-Methylbutanoic acid] | 3 mg/m3 | 0.005 mg/m3
Cc1c[nH]c2ccccc12 [3-Methylindole] | 0.1 mg/m3 | 0.00035 mg/m3
CC(=O)O [Acetic acid] | 76 mg/m3 | 0.025 mg/m3
CCCC(=O)O [Butyric acid] | 9 mg/m3 | 0.0004 mg/m3
CSC [Dimethylsulfide] | 0.65 mg/m3 | 0.002 mg/m3
CCCC(=O)OCC [Ethylbutyrate] | 0.28 mg/m3 | 0.13 mg/m3
CCCCCO [Treatment 1-Pentanol, 1-Pentanol] | 1100 mg/m3 | 0.1 mg/m3
